pEC50: −log10 of the molar value.
Experiments:
A/Darwin/9/2021(H3N2) = assay: In vitro anti-influenza virus activity (CPE inhibition) in infected MDCK cells
[1] = system: A/Victoria/2570/2019(H1N1); assay: as above
[2] = system: A/Puerto Rico/8/1934(H1N1-PR8); assay: as above
[3] = system: B/Austria/1359417/2021(BV); assay: as above
A/Vietnam/2004(H5N1) = assay: as above
A/Shanghai/02/2013(H7N9) = assay: as above
[4] = system: influenza virus (A/California/07/2009); assay: In vivo anti-influenza virus activity in severe influenza DBA/2 mouse model; conditions: DBA/2 mice, 1×10^4 PFU; zanamivir 5 mg/kg i.v. once daily, oseltamivir phosphate 20 mg/kg oral twice daily, 5 consecutive days

Structure (SMILES) | pEC50 (A/Darwin/9/2021(H3N2)) | pEC50 [1] | pEC50 [2] | pEC50 [3] | pEC50 (A/Vietnam/2004(H5N1)) | pEC50 (A/Shanghai/02/2013(H7N9)) | survival of mice receiving positive control drugs [4]
CCOC(=O)C1=C[C@@H](OC(CC)CC)[C@H](NC(C)=O)[C@@H](N)C1 | 8.04 | 6.33 | 5.07 | 5.94 | 6.57 | 7.00 | 
CC(=O)N[C@H]1[C@H]([C@H](O)[C@H](O)CO)OC(C(=O)O)=C[C@@H]1N=C(N)N |  |  |  |  |  | 7.26 | died
COC(=O)OCOc1c2n(ccc1=O)N([C@@H]1c3ccccc3SCc3c1ccc(F)c3F)[C@@H]1COCCN1C2=O | 9.11 | 8.98 | 9.21 | 8.82 |  |  | 
